Measured values from several laboratories, pooled; numbers as filed in NIAID ChemDB.

Shared fields: whole-cell or culture tests; organism: HIV-1; cells: CEM; measure: fold resistance

Fold resistance has wild type as its base.

compound,strain,changes,read by,result
CC(C)=CCN1Cc2cc(Cl)cc3[nH]c(=S)n(c23)C[C@@H]1C,IIIB-Nevirapine(0.1)(RT-Y181C),RT-Y181C,syncytia,1090
CC(C)Nc1cccnc1N1CCN(C(=O)c2cc3ccccc3[nH]2)CC1,TIBO-2(RT-K103N),RT-K103N,syncytia,92.5
Cc1cn([C@@H]2O[C@H](CO[Si](C)(C)C(C)(C)C)C3(OS(=O)(=O)C=C3N)[C@H]2O[Si](C)(C)C(C)(C)C)c(=O)n(C)c1=O,IIIB,RT-L100I,cytopathic effect,2.73
C=C(C)OC(=O)N1c2cc(Cl)ccc2NC(=S)C1(C)C,TSAO(RT-E138K),RT-E138K,syncytia,1.79
Cc1occc1C(=S)Nc1ccc(Cl)c(/C=N/OC(C)(C)C)c1,IIIB,RT-K103N,cytopathic effect,12.5
CCn1c(=O)c(C)cn([C@@H]2O[C@H](CO[Si](C)(C)C(C)(C)C)C3(OS(=O)(=O)C=C3N)[C@H]2O[Si](C)(C)C(C)(C)C)c1=O,IIIB BHAP(RT-L100I),RT-L100I,syncytia,1.33
Cc1cn([C@@H]2O[C@H](CO[Si](C)(C)C(C)(C)C)C3(OS(=O)(=O)C=C3N)[C@H]2O[Si](C)(C)C(C)(C)C)c(=O)n(C)c1=O,IIIB TIBO R82913 STR-1 (RT L100I Y181C),RT-L100I Y181C,syncytia,>1670
CC(C)=CCOc1cc(NC(=S)c2ccoc2C)ccc1Cl,Q-1 (RT T139K Y181C Y188D/Y),RT-T139K Y181C Y188D/Y,cytopathic effect,24
Nc1ncnc2c1ncn2CCOCP(=O)(O)O,IIIB-Nevirapine(1.0)(RT-Y181C),RT-Y181C,syncytia,3.14
O=c1[nH]c2ccc(Cl)cc2n1Cc1c(F)cccc1F,-,RT-Y188H,cytopathic effect,>22.7
CCn1c(=O)c(C)cn([C@@H]2O[C@H](CO[Si](C)(C)C(C)(C)C)C3(OS(=O)(=O)C=C3N)[C@H]2O[Si](C)(C)C(C)(C)C)c1=O,IIIB nevirapine-resistant (RT Y181C),RT-Y181C,syncytia,>1670
Cc1cn([C@H]2C[C@H](N=[N+]=[N-])[C@@H](CO)O2)c(=O)[nH]c1=O,IIIB-Nevirapine(0.1)(RT-Y181C),RT-Y181C,syncytia,0.667
CCOCn1c(Cc2ccccc2)c(CC)c(=O)[nH]c1=O,IIIB NEV(RT-V106A),RT-V106A,syncytia,30
CC(C)=CCN1Cc2cc(Cl)cc3[nH]c(=S)n(c23)C[C@@H]1C,IIIB,RT-L100I,cytopathic effect,109
Cc1cn([C@H]2C[C@H](N=[N+]=[N-])[C@@H](CO)O2)c(=O)[nH]c1=O,P-1 (RT-K103N Y144F),RT-K103N Y144F,cytopathic effect,10
CC(C)=CCOc1cc(NC(=S)c2ccsc2C)ccc1Cl,IIIB,RT-V179D,cytopathic effect,3
c1ccc(C2OCc3nc4ccccc4n32)cc1,TIBO R82150-resistant (RT L100I),RT-L100I,cytopathic effect / MTT,1.3
CCOCn1c(Cc2cc(C)cc(C)c2)c(CC)c(=O)[nH]c1=O,IIIB nevirapine-resistant (RT Y181C),RT-Y181C,syncytia,200
Cc1cn([C@@H]2O[C@H](CO[Si](C)(C)C(C)(C)C)C3(OS(=O)(=O)C=C3N)[C@H]2O[Si](C)(C)C(C)(C)C)c(=O)n(C)c1=O,HEPT (RT Y188H),RT-Y188H,syncytia,1875
Nc1ncnc2c1ncn2CCOCP(=O)(O)O,IIIB TIBO R82913 STR-B22 (RT L100I Y188H),RT-L100I Y188H,syncytia,1.43
Fc1cccc(F)c1C1OCc2nc3ccccc3n21,TSAO-resistant (RT E138K),RT-E138K,cytopathic effect / MTT,1.82
Cc1cn([C@@H]2O[C@H](CO[Si](C)(C)C(C)(C)C)C3(OS(=O)(=O)C=C3N)[C@H]2O[Si](C)(C)C(C)(C)C)c(=O)n(C)c1=O,IIIB E-EBU(RT-Y181C),RT-Y181C,syncytia,>1670
Cc1ccnc2c1NC(=O)c1cccnc1N2C1CC1,D-3 (RT-V108I M184I),RT-V108I M184I,cytopathic effect,3
Nc1nc2c(ncn2[C@H]2CC[C@@H](CO)O2)c(=O)[nH]1,TSAO(RT-E138K),RT-E138K,syncytia,1.25
CCc1cc(NCc2nc3c(Cl)ccc(Cl)c3o2)c(=O)[nH]c1C,IIIB-Nevirapine(0.1)(RT-Y181C),RT-Y181C,syncytia,28
Nc1ccn([C@H]2CC[C@@H](CO)O2)c(=O)n1,IIIB TIBO R82913 STR-1 (RT L100I Y181C),RT-L100I Y181C,syncytia,0.8
CCOCn1c(Sc2ccccc2)c(CC)c(=O)[nH]c1=S,IIIB NEV(RT-V106A),RT-V106A,syncytia,22.5
O=c1[nH]cnc2c1ncn2[C@H]1CC[C@@H](CO)O1,IIIB TSAO-T(RT-E138K),RT-E138K,syncytia,2
CCNc1cccnc1N1CCN(C(=O)c2cc3cc(OC)ccc3[nH]2)CC1,IIIB HEPT-resistant (RT Y188H),RT-Y188H,syncytia,17.5

2 of the rows above, restated:

compound | strain | changes | read by | result
Nc1ncnc2c1ncn2CCOCP(=O)(O)O | IIIB-Nevirapine(1.0)(RT-Y181C) | RT-Y181C | syncytia | 3.14
Nc1ncnc2c1ncn2CCOCP(=O)(O)O | IIIB TIBO R82913 STR-B22 (RT L100I Y188H) | RT-L100I Y188H | syncytia | 1.43

An empty or dashed field is not shown. Conditions beyond the fields shown may differ between rows.